Compound potency records, mixed from different reports. Data source: NIAID ChemDB in PubChem.

Shared fields: host cell toxicity; cells: VERO; read by: MTT; read-out: CC50

CCn: concentration that lowers growth or viability of the cells by n%. Lines come from different laboratories, so protocols vary.

structure,value
O=C1NC(=O)C([N+](=O)[O-])C(C(=O)Nc2ccc(Cl)cc2)N1,>199.8 µM
O=C1C(=O)N(CCn2cc(CN3CCN(c4cc5c(cc4F)c(=O)c(C(=O)O)cn5C4CC4)CC3)nn2)c2ccc(Cl)cc21,40.37 µM
CO/N=C1/C(=O)N(CCOCCOCCOCCN2C(=O)C(=O)c3cc(C)ccc32)c2ccccc21,125 µg/mL
CN1C[C@H](c2ccc(N3CCOCC3)cc2)[C@]2(CC3C=CC=CC3C2=O)[C@]12C(=O)c1cccc3cccc2c13,>62.5 µg/mL
CO/N=C1/C(=O)N(CCOCCOCCOCCn2c(O)c(N=O)c3ccccc32)c2ccc(C)cc21,250 µg/mL
COc1ccc(CNc2nc(=O)c3cc(C(F)(F)F)cc([N+](=O)[O-])c3o2)cc1OC,0.226 µg/mL
NCC[C@H](O)C(=O)N[C@@H]1C[C@H](N)[C@@H](O[C@H]2O[C@H](CN)[C@@H](O)[C@H](O)[C@H]2O)[C@H](O)[C@H]1O[C@H]1O[C@H](CO)[C@@H](O)[C@H](N)[C@H]1O,>62.5 µg/mL
CO/N=C1/C(=O)N(CCOCCOCCOCCn2c(O)c(N=NC(N)=O)c3cc(F)ccc32)c2ccc(F)cc21,62.5 µg/mL
CC[C@H](/C=C/[C@@H](C)[C@H]1CC[C@H]2[C@@H]3CC(=O)[C@H]4C[C@H](O)[C@H](O)C[C@]4(C)[C@H]3CC[C@]12C)C(C)C,158 µM
COc1c(N2CCN(C(=O)C3NC(=O)NC(=O)C3[N+](=O)[O-])C(C)C2)c(F)cc2c(=O)c(C(=O)O)cn(C3CC3)c12,>111.5 µM
CC[C@@H](C(C)C)[C@@H](O)[C@H](O)[C@@H](C)[C@H]1CC[C@H]2[C@@H]3CC(=O)[C@H]4C[C@H](O)[C@H](O)C[C@]4(C)[C@H]3CC[C@]12C,62 µM
COc1cc(-c2nc(N)nc(N)n2)ccc1OCc1ccc(F)cc1,360 µM
O=C(Cc1nn(Cc2ccc(Br)cc2F)c(=O)c2ccccc12)N/N=C/c1cccc([N+](=O)[O-])c1,>122.5 µM
O=C1NC(=O)C([N+](=O)[O-])C(C(=O)N2CCN(c3cc4c(cc3F)c(=O)c(C(=O)O)cn4C3CC3)CC2)N1,>121 µM
c1ccc(Nc2c3ccccc3nc3oc4ccccc4c23)cc1,6.14 µg/mL
CC[C@@H](C(C)C)[C@@H](O)[C@H](O)[C@@H](C)[C@H]1CC[C@H]2[C@@H]3CC(=O)[C@@]4(O)C[C@@H](F)CC[C@]4(C)[C@H]3CC[C@]12C,42 µM
CN1C[C@H](c2ccc(N3CCCCC3)cc2)[C@]2(CC3C=CC=CC3C2=O)[C@]12C(=O)c1cccc3cccc2c13,>62.5 µg/mL
COc1ccc(COc2ccc(-c3nc(N)nc(N)n3)cc2)cc1,368 µM
COc1c2ccccc2nc2oc3ccccc3c12,11.77 µg/mL
O=C(Cc1nn(Cc2ccc(Br)cc2F)c(=O)c2ccccc12)NN=C(c1ccccc1)c1ccccc1,115.4 µM
O=C1C(=O)N(CCn2cc(CN3CCN(c4cc5c(cc4F)c(=O)c(C(=O)O)cn5C4CC4)CC3)nn2)c2ccccc21,85.44 µM
COc1ccc2c3c([nH]c2c1)C(C)=NCC3,21.43 µg/mL
O=C(Cc1nn(Cc2ccc(Br)cc2F)c(=O)c2ccccc12)N/N=C/c1ccc(F)cc1,>129.3 µM
COc1cc(-c2nc(N)nc(N)n2)ccc1OCc1cccc(Cl)c1,293 µM
CO/N=C1/C(=O)N(CCOCCOCCOCCn2c(O)c(N=O)c3cc(F)ccc32)c2ccc(F)cc21,62.5 µg/mL
O=C(Cc1nn(Cc2ccc(Br)cc2F)c(=O)c2ccccc12)N/N=C/c1cccc(F)c1,>129.3 µM
CO/N=C1/C(=O)N(CCn2cc(CN3CCN(c4cc5c(cc4F)c(=O)c(C(=O)O)cn5C4CC4)CC3)nn2)c2ccccc21,20.35 µM
CO/N=C1/C(=O)N(CCOCCOCCOCCN2C(=O)C(=O)c3cc(F)ccc32)c2ccc(F)cc21,31.2 µg/mL
CC[C@@H](C(C)C)[C@@H](O)[C@H](O)[C@@H](C)[C@H]1CC[C@H]2[C@@H]3CC(=O)[C@@]4(O)C[C@H](O)[C@H](O)C[C@]4(C)[C@H]3CC[C@]12C,262 µM
CN(C)c1ccc(/C=N/NC(=O)Cc2nn(Cc3ccc(Br)cc3F)c(=O)c3ccccc23)cc1,122.9 µM
CO/N=C1/C(=O)N(CCOCCOCCOCCN2C(=O)C(=O)c3ccccc32)c2ccc(C)cc21,62.5 µg/mL
O=c1cc(N2CCN(CC3CCCCC3)CC2)sc2c([N+](=O)[O-])cc(C(F)(F)F)cc12,>64 µg/mL
COc1cc(-c2nc(N)nc(N)n2)ccc1OCc1ccc(Cl)cc1,408 µM
C/C(=N\NC(=O)Cc1nn(Cc2ccc(Br)cc2F)c(=O)c2ccccc12)c1ccc(Br)cc1,111.9 µM
CCO/N=C1\C(=O)N(CCOCCOCCOCCN2C(=O)/C(=N/OC)c3cc(F)ccc32)c2ccc(F)cc21,62.5 µg/mL
Nc1nc(N)nc(-c2ccc(OCc3ccc(Cl)cc3Cl)cc2)n1,364 µM

A second listing of 4 rows from above:

structure | value
CO/N=C1/C(=O)N(CCOCCOCCOCCn2c(O)c(N=O)c3ccccc32)c2ccc(C)cc21 | 250 µg/mL
O=C(Cc1nn(Cc2ccc(Br)cc2F)c(=O)c2ccccc12)N/N=C/c1cccc(F)c1 | >129.3 µM
CC[C@@H](C(C)C)[C@@H](O)[C@H](O)[C@@H](C)[C@H]1CC[C@H]2[C@@H]3CC(=O)[C@H]4C[C@H](O)[C@H](O)C[C@]4(C)[C@H]3CC[C@]12C | 62 µM
COc1cc(-c2nc(N)nc(N)n2)ccc1OCc1ccc(F)cc1 | 360 µM